Measurements taken from patent US20100256040A1 (priority 2001, published 2010).
Where a SMILES comes first, the peptide text is derived from it.

System: HIV-1
Settings: TC50 / IC50
Procedure: Fresh human blood was obtained commercially from Interstate Blood Bank, Inc. (Memphis, Tenn.). The lymphotropic clinical isolate HIV-1ROJO was obtained from a pediatric patient attending the AIDS Clinic at the University of Alabama at Birmingham. The laboratory-adapted HIV-1IIIB strain was propagated and tittered in fresh human PBMCs; pre-titered aliquots of HIV-1ROJO and Hiv-1IIIB were removed from the freezer (−80° C.) and thawed rapidly to room temperature in a biological safety cabinet immediately before use. Phytohemagglutinin (PHA-P) was obtained from Sigma (St. Louis, Mo.) and recombinant IL-2 was obtained from Amgen (San Francisco, Calif.).
Fresh human PBMCs were isolated from screened donors, seronegative for HIV and HBV. Leukophoresed blood was diluted 1:1 with Dulbecco's phosphate buffered saline (PBS), layered over 14 mL of Ficoll-Hypaque density gradient in a 50 mL centrifuge tube and then centrifuged for 30 minutes at 600×g. Banded PBMCs were aspirated from the resulting interface and subsequently washed 2× with PBS by low speed centrifugation. […]
A microtiter based reverse transcriptase (RT) reaction was utilized. […] Opti-Fluor-O (Packard) was added to each sample and incorporated radioactivity was quantified utilizing a Wallac 1450 MicroBeta Plus liquid scintillation counter.

Row | Structure (SMILES) | Therapeutic Index
1 | Cc1cn([C@H]2C[C@H](N=[N+]=[N-])[C@@H](CO)O2)c(=O)[nH]c1=O [AZT, 3′-Azido-3′-deoxythymidine, reference compound] | >125.00
2 | C[C@H](NC(=O)[C@@H](NC(=O)[C@@H]1CCCN1C(=O)[C@H](CCC(=O)O)NC(=O)[C@@H]1CCCN1C(=O)[C@H](CCCNC(=N)N)NC(=O)[C@H](CCCNC(=N)N)NC(=O)[C@H](CCCNC(=N)N)NC(=O)[C@H](CCCNC(=N)N)NC(=O)[C@H](CCCNC(=N)N)NC(=O)[C@H](CCCNC(=N)N)NC(=O)[C@H](CCCNC(=N)N)NC(=O)[C@H](CCCNC(=N)N)NC(=O)[C@@H](N)CCCNC(=N)N)[C@@H](C)O)C(=O)N1CCC[C@H]1C(=O)N[C@@H](CCC(=O)O)C(=O)N[C@@H](CCC(=O)O)C(=O)O [MPI-PEP1, NH2-(R)9-PEPTAPEE-COOH] (H-RRRRRRRRRPEPTAPEE-OH) | 9.2
